Reference: patent US20230132667
The exact form of at least one protein or probe is not confirmed.

Test system: Tat arginine-rich motif peptide (Tat-ARM) (HIV-1)
Assay: binding assay
Settings: NMR TOCSY shifts, 0.5 mM RNA, 2x ligand, 50 mM K phosphate, 50 mM NaCl, 25 C; purified recombinant protein; label: 5'-32P (EMSA)

“GGCAGAUCUGAGCCUGGGAGCUCUCUGCC [HIV-1 TAR]”: binds.
